Pooled drug test results. Numbers come from NIAID ChemDB, via PubChem.

All rows: host cell toxicity; cells: PBL; measure: CC50

An empty or dashed field is not shown. CCn: concentration that lowers growth or viability of the cells by n%. Rows are shuffled and stem from different studies.

compound,read by,value
CC(C)C[C@H](NC(=O)[C@@H](N)[C@@H](C)O)C(=O)N[C@@H](CC(N)=O)C(=O)N[C@@H](Cc1ccccc1)C(=O)O,-,>200 µg/mL
CC(O)Cn1cnc2cnc(N)nc21,-,>100 µM
Nc1nc2c(ncn2OCCCCP(=O)(O)O)c(=O)[nH]1,MTT,>100 µM
CC(C)c1nc(Oc2ccc(S(C)(=O)=O)cc2)ccc1CN1CCC(N2C(=O)N(c3cc(C(N)=O)c(F)cc3F)C[C@H]2c2ccccc2)CC1,-,1.6 nM
CC[C@H](C)[C@H](NC(=O)[C@H](CCC(N)=O)NC(=O)[C@@H]1CCCN1C(C)=O)C(=O)N[C@H](C(=O)N[C@@H](CC(C)C)C(=O)O)[C@@H](C)O,-,>200 µg/mL
Cc1nc(Oc2ccc(S(C)(=O)=O)cc2)ccc1CN1CCC(N2C(=O)N(c3cc(C(N)=O)c(F)cc3F)C[C@H]2c2ccccc2)CC1,-,1 nM
CC[C@H](C)[C@H](NC(C)=O)C(=O)NCC(=O)N[C@@H](CC(C)C)C(=O)N[C@H](C(=O)N[C@@H](CC(C)C)C(=O)N[C@@H](CC(N)=O)C(=O)N[C@@H](Cc1ccccc1)C(=O)O)[C@@H](C)O,-,>200 µg/mL
CC[C@@]1(O)C(=O)OCc2c1cc1n(c2=O)Cc2cc3c([N+](=O)[O-])cccc3nc2-1,-,>0.03 µM
CC(C)C[C@H](NC(=O)[C@@H](NC(=O)[C@@H](N)CC(C)C)[C@@H](C)O)C(=O)N[C@@H](CC(N)=O)C(=O)N[C@@H](Cc1ccccc1)C(=O)O,-,>200 µg/mL
O=c1cc(CCl)nc2c3ncn([C@H]4C[C@H](O)[C@@H](COP(=O)(O)O)O4)c3ncn12,-,15 µM
CC(C)C[C@H](NC(=O)[C@@H](N)[C@@H](C)O)C(=O)N[C@@H](CC(N)=O)C(=O)N[C@@H](Cc1ccccc1)C(N)=O,-,>200 µg/mL
Nc1ncc2ncn(CCO)c2n1,-,>100 µM
O=C(c1c(O)cc(O)cc1O)c1c(-c2ccc(O)cc2)oc2cc(O)c3c(c12)O[C@H](c1ccc(O)cc1)[C@@H](O)C3,-,67 µg/mL
CC(CO)n1cnc2c(N)ncnc21,-,>100 µM
O=C(c1c(O)cc(O)cc1O)c1c(-c2ccc(O)cc2)oc2cc(O)c3c(c12)O[C@H](c1ccc(O)cc1)CC3,-,74 µg/mL

2 of the rows above, restated:

compound	read by	value
CC[C@H](C)[C@H](NC(=O)[C@H](CCC(N)=O)NC(=O)[C@@H]1CCCN1C(C)=O)C(=O)N[C@H](C(=O)N[C@@H](CC(C)C)C(=O)O)[C@@H](C)O	-	>200 µg/mL
O=c1cc(CCl)nc2c3ncn([C@H]4C[C@H](O)[C@@H](COP(=O)(O)O)O4)c3ncn12	-	15 µM